This is an account of results in paper PMC7997032, “Organic synthesis and anti-influenza A virus activity of cyclobakuchiols A, B, C, and D” (PLoS ONE, 2021).

In the series the test system is A/PR/8/34 virus. It counts as cell-based. The conditions noted are these: 12.5 μM, 24h WB, internal control, single experiment.

Where “and” joins values, the source holds several entries; their conditions need not be identical. Equal entries are not always repeated. Where two headings read alike, the source gives them in different places.

Turning to `C=C[C@]1(C)CCC(C(=C)C)C(c2ccc(O)cc2)C1` (stereo in doubt) [cyclobakuchiol A], the “b-actin mean (western blot signal intensity, ImageJ)” value (“b-actin mean” for short) (listed as cyclo A) is 156.336 and 133.85 and 133.178.
Regarding `C=C[C@]1(C)CCC(C(=C)C)C(c2ccc(O)cc2)C1` (stereo in doubt) [cyclobakuchiol B], the “b-actin mean” value is 145.043 and 116.425 and 132.668.
Consider `C=C[C@]1(C)CCC(C(C)(C)O)C(c2ccc(O)cc2)C1` (stereo in doubt) [cyclobakuchiol C], for which, where the note is “listed as cyclo C”, the “b-actin mean” value is 131.086 and 106.034 and 136.563.
Consider `C=C[C@]1(C)CCC(C(C)(C)O)C(c2ccc(O)cc2)C1` (stereo in doubt) [cyclobakuchiol D], for which the “b-actin mean” value (listed as cyclo D) was 122.172 and 135.965 and 130.558.
For `C=C[C@@](C)(/C=C/c1ccc(O)cc1)CCC=C(C)C` [(+)-(S)-bakuchiol, reference compound], the “b-actin mean” value is 156.622 and 135.848 and 135.596.
